Pooled drug test results. Numbers come from NIAID ChemDB, via PubChem.

Common to all: cytotoxicity tests; cell line: C8166; measure: CC50

Blank or dashed fields: not listed here.

structure	method	result
CC(C)C[C@H](NC(=O)[C@H](CC(=O)OS(=O)(=O)O)NC(=O)[C@@H](N)Cc1ccc(OS(=O)(=O)O)cc1)C(=O)N[C@@H](CC(=O)OS(=O)(=O)O)C(=O)N[C@@H](Cc1ccc(OS(=O)(=O)O)cc1)C(=O)N[C@@H](Cc1ccc(OS(=O)(=O)O)cc1)C(=O)O.CCN(CC)CC.CCN(CC)CC.CCN(CC)CC.CCN(CC)CC.CCN(CC)CC	-	>1000 µg/mL
Oc1cc(O)c2c(c1)O[C@H](c1ccc(O)c(O)c1)[C@H](O)C2	MTT	>200 µg/mL
OCCc1ccc(O[C@@H]2O[C@H](CO)[C@@H](O)[C@H](O)[C@H]2O)c(O)c1	MTT	243.8 µg/mL
O=C(C=Cc1ccc(O)c(O)c1)O[C@@H]1C[C@](O)(C(=O)O)C[C@@H](O)[C@H]1O	-	>500 µg/mL
COc1cc(OC)cc(OC2O[C@H](CO)[C@@H](O)[C@H](O)[C@H]2O)c1	MTT	>200 µM
C=C(C)[C@@]1(OC(=O)c2ccccc2)[C@H](OC(C)=O)[C@@H]2[C@H](OC(C)=O)[C@@]3(C)O[C@@]4([C@@H]3OC(=O)c3ccccc3)[C@@H](O)[C@@H](C)C[C@H]4[C@@]2(O)[C@H](C)[C@@H]1OC(C)=O	MTT	106 µg/mL
Nc1ncc2ncn([C@H]3CC[C@@H](CO)O3)c2n1	-	>1000 µM
C=C(C)[C@@]12OCO[C@@H]1[C@@H]1[C@H](O)[C@@](C)(O)[C@@H](OC(C)=O)[C@@]3(O)C(C[C@H](C)[C@@H]3O)[C@@]1(Oc1ccccc1)[C@H](C)[C@@H]2OC(=O)c1ccccc1	MTT	>200 µg/mL
O=c1c2nccn2c2ccccc2n1CCNC(=S)Nc1ccc(Br)cn1	-	88 µM
CCN1c2ncccc2N(C)C(=S)c2sc3cccnc3c21	-	38 µM
Cc1cn([C@H]2C[C@H](N=[N+]=[N-])[C@@H](CO)O2)c(=O)[nH]c1=O	-	>1000 µM
Cc1cn([C@H]2C[C@H](N=[N+]=[N-])[C@@H](CO)O2)c(=O)[nH]c1=O	-	>1000 µM
CCCCCCCCCc1ccc(OCCOCCOCCOCCOCCOCCOCCOCCO)cc1	-	>10 µg/mL
O=C1C[C@@H](c2ccc(O)cc2)Oc2cc(O[C@@H]3C[C@@H](O)[C@H](O)[C@@H](CO)O3)cc(O)c21	-	>100 µg/mL
O=C(O[C@@H]1Cc2c(O)cc(O)cc2O[C@@H]1c1ccc(O)c(O)c1)c1cc(O)c(O)c(O)c1	MTT	185 µg/mL
O=C1c2c(O)cc(O)cc2O[C@H](c2ccc(O)c(O)c2)[C@H]1O	-	100 µg/mL
C=C(C)[C@@]1(O)[C@H](O)[C@@H]2[C@H](OC(C)=O)[C@@]3(C)O[C@@]4([C@@H]3OC(=O)c3ccccc3)[C@@H](OC(C)=O)[C@@H](C)C[C@H]4[C@@]2(O)[C@H](C)[C@@H]1OC(=O)c1ccccc1	MTT	>200 µg/mL
Cc1ccc(C(O)c2cc(Cl)ccc2OCC(=O)Nc2ccc(S(N)(=O)=O)cc2C)c(C)c1	-	>4.1 µM
S=C(Nc1ccc(Cl)cc1)Nn1c(-c2ccc(Cl)cc2)c[nH]c1=S	MTT	>200 µM
CCN1c2ncccc2N(C)C(=O)c2oc3cccnc3c21	-	175 µM
O=C1c2c(O)cc(O)cc2O[C@H](c2ccc(O)cc2)[C@H]1O	-	>200 µg/mL
CO[C@H]1/C=C/O[C@@]2(C)Oc3c(C)c(O)c4c(c3C2=O)C(=O)C(SCCCCCCCOC(=O)CCCC(=O)OC[C@H]2O[C@@H](n3cc(C)c(=O)[nH]c3=O)C[C@@H]2N=[N+]=[N-])=C(NC(=O)/C(C)=C\C=C\[C@H](C)[C@H](O)[C@@H](C)[C@@H](O)[C@@H](C)[C@H](OC(C)=O)[C@@H]1C)C4=O	-	>30 µM
S=C(Nc1ccc(Br)cc1)Nn1c(-c2ccc(Br)cc2)c[nH]c1=S	MTT	88.11 µM
Cc1cn([C@H]2C[C@H](N=[N+]=[N-])[C@@H](COP(=O)(N[C@@H](C)C(=O)OCc3ccccc3)OCC(Cl)(Cl)Cl)O2)c(=O)[nH]c1=O	-	<100 µM
C/C=C(/C)C(=O)O[C@H]1c2cc3c(c4c2C2(CO4)C(=O)C(OC)=C(OC)C=C2C[C@@H](C)[C@H]1C)OCO3	MTT	82.1 µg/mL
C=C(C)[C@@]1(O)[C@H](OC(C)=O)[C@@H]2[C@H](OC(C)=O)[C@@]3(C)O[C@@]4([C@@H]3OC(=O)c3ccccc3)[C@@H](O)[C@@H](C)C[C@H]4[C@@]2(O)[C@H](C)[C@@H]1OC(=O)c1ccccc1	MTT	183.4 µg/mL
O=c1c2cccn2c2ccc(F)cc2n1CCNC(=S)Nc1ccc(Br)cn1	-	15 µM
O=c1c(O)c(-c2ccc(O)cc2)oc2cc(OC3OC(CO)C(O)C(O)C3O)cc(O)c12	-	>250 µg/mL
CC(C)(C)CC(C)(C)c1ccc(OCCOCCOCCOCCOCCOCCOCCOCCOCCO)cc1	-	>10 µg/mL
C=C(C)[C@@]1(O)[C@H](OC(C)=O)[C@@H]2[C@H](OC(=O)c3ccccc3)[C@@]3(C)O[C@@]4([C@@H]3OC(C)=O)[C@@H](OC(C)=O)[C@@H](C)C[C@H]4[C@@]2(O)[C@H](C)[C@@H]1OC(=O)c1ccccc1	MTT	>200 µg/mL
COc1cc([C@@H]2c3cc(O)c(OC)cc3C[C@@H](CO)[C@@H]2CO)ccc1O	MTT	>200 µM
Cc1cn([C@H]2C[C@H](N=[N+]=[N-])[C@@H](CO)O2)c(=O)[nH]c1=O	MTT	1291 µM
O=c1c2cccn2c2c(F)cccc2n1CCNC(=S)Nc1ccc(Br)cn1	-	21 µM
COc1cc([C@H](O)[C@H](CO)Oc2c(O)cc(C(=O)CCO)cc2O)ccc1O	MTT	247.2 µg/mL
O=C(O)C1(O)C[C@@H](O)C(O)[C@H](O)C1	-	>200 µg/mL
S=C(Nc1ccc(Cl)cc1)Nn1c(-c2ccc(Br)cc2)c[nH]c1=S	MTT	80 µM
Cc1cn([C@H]2C[C@H](N=[N+]=[N-])[C@@H](COP(=O)(Oc3ccc(C(F)(F)F)cc3)Oc3ccc(C(F)(F)F)cc3)O2)c(=O)[nH]c1=O	-	500 µM
C/C=C(/C)C(=O)O[C@H]1c2cc3c(c4c2C2(CO4)C(=O)C(OC)=C(OC)[C@H]4O[C@@H]([C@@H](C)[C@H]1C)C42O)OCO3	MTT	112.4 µg/mL
C[C@@H](Cn1cnc2c(N)ncnc21)OCP(=O)(O)O	-	>300 µM
COc1cc(/C=C/C(=O)O[C@H]2[C@H](O)[C@@H](OC3OCC(O)(CO)C3O)[C@H](OCCc3ccc(O)cc3)O[C@@H]2CO)ccc1O	MTT	>200 µg/mL
C/C=C/c1cc(=O)c2c(CC(C)=O)cc(O)cc2o1	MTT	200 µg/mL
Cc1cn([C@H]2C[C@H](N=[N+]=[N-])[C@@H](CO)O2)c(=O)[nH]c1=O	MTT	1370 µM
CC(C)(C)NC(=O)[C@@H]1C[C@@H]2CCCC[C@@H]2CN1C[C@@H](O)[C@H](Cc1ccccc1)NC(=O)[C@H](CC(N)=O)NC(=O)c1ccc2ccccc2n1	MTT	27.5 µM
CCN1c2ncccc2N(C)C(=O)c2sc3cccnc3c21	-	73 µM
Cc1ccccc1NC(=S)Nn1c(-c2ccc(Cl)cc2)c[nH]c1=S	MTT	59.23 µM
CC1(C)S[C@H]([C@H](NC(=O)Cc2ccccc2)C(=O)NCc2ccccc2)N[C@H]1C(=O)NCCNC(=O)[C@@H]1N[C@@H]([C@H](NC(=O)Cc2ccccc2)C(=O)NCc2ccccc2)SC1(C)C	-	>110 µM
Nc1ccn([C@H]2CC[C@@H](CO)O2)c(=O)n1	-	48 µM
COc1cc(/C=C/C(=O)O[C@@H]2Cc3c(O)cc(O)cc3O[C@@H]2c2ccc(O)c(O)c2)ccc1O	MTT	20.46 µg/mL
O=c1c(O)c(-c2ccc(O)cc2)oc2cc(O)cc(O)c12	-	70 µg/mL
CCN1c2ncccc2N(C)C(=O)c2oc3ccccc3c21	-	80 µM
OCCc1ccc(O)c(O[C@@H]2O[C@H](CO)[C@@H](O)[C@H](O)[C@H]2O)c1	MTT	52.5 µg/mL
COC1=C(OC)C(=O)C23C(=C1)C[C@@H](C)[C@]2(C)[C@@H](O)c1cc2c(c(OC)c13)OCO2	MTT	>200 µg/mL
COC(O)c1cc(O)c(O)c(O)c1	MTT	82.79 µM
COc1cc(C(c2ccc(O)c(OC)c2)C(C(=O)O)C(CO)CO)ccc1O	-	73.8 µg/mL
O=C(Nc1ccc([N+](=O)[O-])cc1)OC(CN1CCCc2ccccc21)c1ccc(Cl)cc1	MTT / absorbance	18.95 µg/mL
S=C(Nc1cccc2ccccc12)Nn1c(-c2ccc(Br)cc2)c[nH]c1=S	MTT	48.79 µM
C[C@@H]1O[C@@H](O[C@@H]2[C@@H](O)[C@H](OCCc3ccc(O)c(O)c3)O[C@H](CO)[C@H]2OC(=O)/C=C/c2ccc(O)c(O)c2)[C@H](O)[C@H](O)[C@H]1O	MTT	154.8 µg/mL
OCC1OC(OCCc2ccccc2)C(O)C(O)C1O	-	>250 µg/mL
Cc1cc(O)cc(O)c1	MTT	>200 µM
C=C(C)[C@@]1(O)[C@H](OC(C)=O)[C@@H]2[C@H](OC(=O)c3ccccc3)[C@@]3(C)O[C@@]4([C@@H]3OC(=O)c3ccccc3)[C@@H](OC(C)=O)[C@@H](C)C[C@H]4[C@@]2(O)[C@H](C)[C@@H]1OC(C)=O	MTT	41.95 µg/mL
CO[C@H]1/C=C/O[C@@]2(C)Oc3c(C)c(O)c4c(c3C2=O)C(=O)C(SCCOC(=O)CCC(=O)OC[C@H]2O[C@@H](n3cc(C)c(=O)[nH]c3=O)C[C@@H]2N=[N+]=[N-])=C(NC(=O)/C(C)=C\C=C\[C@H](C)[C@H](O)[C@@H](C)[C@@H](O)[C@@H](C)[C@H](OC(C)=O)[C@@H]1C)C4=O	-	>30 µM
O=C(c1ccccc1)c1c(O)cc(O)c([C@@H]2O[C@H](CO)[C@@H](O)[C@H](O)[C@H]2O)c1O	MTT	>200 µg/mL
COC(=O)C1=C[C@H](O)[C@@H](O)[C@H](O)C1	MTT	>200 µM
O=C(c1ccccc1)c1c(O)cc(O)cc1O[C@@H]1O[C@H](CO)[C@@H](O)[C@H](O)[C@H]1O	MTT	>200 µg/mL
O=C1c2c(O)cc(O[C@@H]3C[C@@H](O)[C@H](O)[C@@H](CO)O3)cc2O[C@H](c2ccc(O)c(O)c2)[C@H]1O	-	350 µg/mL
O=C1c2c(O)cc(O)cc2O[C@H](c2ccc(O)c(O)c2)[C@H]1O	MTT	118.9 µg/mL

9 of the rows above, restated:

structure | method | result
CO[C@H]1/C=C/O[C@@]2(C)Oc3c(C)c(O)c4c(c3C2=O)C(=O)C(SCCCCCCCOC(=O)CCCC(=O)OC[C@H]2O[C@@H](n3cc(C)c(=O)[nH]c3=O)C[C@@H]2N=[N+]=[N-])=C(NC(=O)/C(C)=C\C=C\[C@H](C)[C@H](O)[C@@H](C)[C@@H](O)[C@@H](C)[C@H](OC(C)=O)[C@@H]1C)C4=O | - | >30 µM
CCN1c2ncccc2N(C)C(=O)c2sc3cccnc3c21 | - | 73 µM
Cc1cn([C@H]2C[C@H](N=[N+]=[N-])[C@@H](CO)O2)c(=O)[nH]c1=O | - | >1000 µM
OCC1OC(OCCc2ccccc2)C(O)C(O)C1O | - | >250 µg/mL
S=C(Nc1cccc2ccccc12)Nn1c(-c2ccc(Br)cc2)c[nH]c1=S | MTT | 48.79 µM
COc1cc(/C=C/C(=O)O[C@H]2[C@H](O)[C@@H](OC3OCC(O)(CO)C3O)[C@H](OCCc3ccc(O)cc3)O[C@@H]2CO)ccc1O | MTT | >200 µg/mL
CCN1c2ncccc2N(C)C(=O)c2oc3cccnc3c21 | - | 175 µM
O=C1c2c(O)cc(O[C@@H]3C[C@@H](O)[C@H](O)[C@@H](CO)O3)cc2O[C@H](c2ccc(O)c(O)c2)[C@H]1O | - | 350 µg/mL
Oc1cc(O)c2c(c1)O[C@H](c1ccc(O)c(O)c1)[C@H](O)C2 | MTT | >200 µg/mL

CCn: concentration that lowers growth or viability of the cells by n%. Lines come from different laboratories, so protocols vary.